Assay results taken from patent publication US10874687B1 (Atea Pharmaceuticals, Inc., priority 2020, dated 2020).

Test system: HCoV-229E
Type: cell-based, human coronavirus alpha-229E
Details: Alpha-229E in Huh7 cells

CNc1nc(N)nc2c1ncn2[C@@H]1O[C@H](CO[P@@](=O)(N[C@@H](C)C(=O)OC(C)C)Oc2ccccc2)[C@@H](O)[C@@]1(C)F [Compound 1A]
Neutral Red SI (CC50/EC50): >50
Visual SI (CC50/EC50): >50
VYR SI (CC50/EC90): >70
